A mixed list of measured activities; the numbers were collected in NIAID ChemDB.

All rows: whole-cell or culture tests; species: HIV-1; measure: fold resistance

Neighbouring rows are from separate reports.

SMILES | method | cell line | mutations | strain or isolate | value
O=S(=O)(Cc1ccccc1I)c1cccc[n+]1[O-] | syncytia | CEM | RT-Y181C | IIIB | 2.5
Cc1cc2cn[nH]c2cc1NC(=O)COc1ccc(Cl)cc1C(=O)c1cccc(C#N)c1 | β-galactosidase | HeLa + HELA CD4+ | RT-K103N Y181C | HXB2 (RT-K103N Y181C) Recombinant | ~1
CCN1C(=O)c2c(O)c(=O)c(C(=O)NCc3c(F)cc(F)cc3F)cn2[C@H]2CCOC[C@H]21 | luminescence | MT-2 | G140S/Q148R |  | 2.5
CCN1c2ncc(CCOc3ccc(-c4ccc(CC(=O)O)cc4)cc3)cc2C(=O)N(C)c2cccnc21 | p24 | C8166 | RT-K103N Y181C |  | >1
Cc1cc(C)c(-n2nnnc2SCC(=O)Nc2ccc3c(c2)OCO3)c(C)c1 | p24 | C8166 | 1(RT-K103N Y181C) | RT-K103N Y181C | >2
C=C(C)[C@@H]1CC[C@]2(C(=O)NCCCCCCCC(=O)N[C@@H](CC(C)C)[C@@H](O)CC(=O)O)CC[C@]3(C)[C@H](CC[C@@H]4[C@@]5(C)CC[C@H](O)C(C)(C)[C@@H]5CC[C@]43C)[C@@H]12 | p24 | HeLa P4 + HeLa | I84S | LAI-R(GP41-I84S) | >10
CC(C)=CCOc1cc(NC(=S)c2ccoc2C)ccc1Cl | p24 | CEM + CEM-SS | RT-Y188C | NL4-3 | 1.67
CCC(C)[C@@H](C(=O)N[C@@H](Cc1ccccc1)[C@H](O)CN(CC(C)C)S(=O)(=O)c1ccc(/C=N/O)cc1)N1CCN(Cc2ccncc2)C1=O | cytopathic effect / MTT | MT-4 | PR-L10F V32I M46I I47V Q68E I84V | A17 (LPV-resistant) | 1.3
Cc1nnc(SCC(=O)Nc2ccc(S(N)(=O)=O)cc2Cl)n1-c1cccc2ccccc12 | luciferase | HeLa + HeLa-JC53 | RT-Y188L | NL4-3 | 380
Cc1ccc(C)c(CS(=O)c2ccc(Cl)c[n+]2[O-])c1 | syncytia | CEM | RT-Y181C | IIIB | 4.7
Cc1ccc(C)c(C(C)S(=O)(=O)c2c(C)ccc[n+]2[O-])c1 | cytopathic effect | CEM | RT-K103N |  | 120
CC(C)CN(C[C@@H](O)[C@H](Cc1ccccc1)NC(=O)O[C@H]1CO[C@H]2OCC[C@H]21)S(=O)(=O)c1ccc(-c2csc(NCCCN(C)C)n2)cc1 | cytopathic effect / MTT | MT-4 | PR-L010F M046I M071V I084V |  | 79
CC1=C(C(=O)Nc2ccc(Cl)c(C(=O)OC3CCCCC3)c2)SCCO1 | syncytia | CEM | RT-Y181C | PYR-resistant (RT Y181C) | 12.5
Nc1nc(NC2CC2)c2ncn([C@H]3CO[C@@H](CO)O3)c2n1 | RT activity | MT-2 | RT-V75I | IIIB BCH-13520-resistant (RT V75I) | 3
O=C(O[C@@H]1[C@H](OC(=O)c2ccccc2)[C@@H](CO)O[C@H]1n1cnc2c(N(C(=O)c3ccccc3)C(=O)c3ccccc3)ncnc21)c1ccccc1 | β-galactosidase | HeLaP4 | E138K | NL4-3 | 0.89
Cc1cc(C)cc(S(=O)(=O)c2c(C(N)=O)[nH]c3c(Cl)cc(Cl)cc23)c1 | cytopathic effect / MTT | C8166 | RT-K103R |  | >83
COCc1cccc(CN2CCN([C@H](C(=O)N[C@@H](Cc3ccccc3)[C@H](O)CN(CC(C)C)S(=O)(=O)c3ccc(/C=N/O)cc3)C(C)(C)C)C2=O)n1 | cytopathic effect / MTT | MT-4 | PR-L10F V32I M46I I47V Q68E I84V | A17 (LPV-resistant) | 1.25
C[C@H]1CO[C@@H]2Cn3cc(C(=O)NCc4ccc(F)cc4F)c(=O)c(O)c3C(=O)N12 | RT activity | CBMC | G118R | NL4-3 | 8
Cc1ccc(C)c(CS(=O)c2ccc(Cl)c[n+]2[O-])c1 | cytopathic effect | CEM | RT-Y181C |  | 4.7
CCN1C(=O)c2c(O)c(=O)c(C(=O)NCc3c(F)cc(F)cc3F)cn2[C@H]2COC[C@H]21 | luminescence | MT-2 | E92Q/N155H |  | 2.3
CC(C)=CCOc1cc(NC(=S)c2ccoc2C)ccc1Cl | cytopathic effect / XTT | CEM + CEM-SS | RT-A98G V108I | TIBO R82150-resistant (RT A98G V108I) | 30
Cc1cc(C)cc(S(=O)(=O)c2c(C(=O)/C=C/C(N)=O)[nH]c3ccc(Cl)cc23)c1 | p24 | C8166 | RT-K103N Y181C | IIIB | 1666
Cc1cc(C#N)cc(C(=O)c2cc(Cl)ccc2OCC(=O)Nc2ccc(S(N)(=O)=O)nc2C)c1 | β-galactosidase | HeLa + HELA CD4+ | RT-K103N | HXB2 | ~1
CNc1nc(-c2ccc(S(=O)(=O)N(CC(C)C)C[C@@H](O)[C@H](Cc3ccccc3)NC(=O)O[C@H]3CO[C@H]4OCC[C@H]43)cc2)cs1 | cytopathic effect / MTT | MT-4 | PR-L010F M046I M071V I084V |  | 42
CCCOC(=O)c1cc(NC(=O)C2=C(C)OCCS2)ccc1Cl | syncytia | CEM | RT-V106A | Nevirapine-resistant (RT V106A) | 300
O=C(CSc1nnnn1-c1cccc2ccccc12)Nc1cccc(Cl)c1Cl | p24 | C8166 | 1(RT-K103N Y181C) | RT-K103N Y181C | >2
CCN1c2ncc(CCOc3ccc(C(=O)Nc4ccc[n+]([O-])c4)cc3C)cc2C(=O)Nc2c(C)ccnc21 | p24 | C8166 | RT-K103N Y181C |  | 1
CSCSc1nc(Cc2c(F)cccc2F)c(C)c(=O)[nH]1 | cytopathic effect / MTT | MT-4 | RT-Y181C | IIIB | 200
Cc1ccc(-n2c(C)nnc2SCC(=O)Nc2ccc(C)cc2Cl)c(C)c1 | luciferase | HeLa + HeLa-JC53 | RT-K103N Y181C | NL4-3 | 600
CCC(C)[C@@H](C(=O)N[C@@H](Cc1ccccc1)[C@H](O)CN(CC(C)C)S(=O)(=O)c1ccc(/C=N/O)cc1)N1CCN(Cc2c(C)ccnc2C)C1=O | cytopathic effect / MTT | MT-4 | PR-L10F V32I M46I I47V Q68E I84V | A17 (LPV-resistant) | 2
CCN1C(=O)c2c(O)c(=O)c(C(=O)NCc3ccc(F)c(Cl)c3F)cn2[C@H]2CCOC[C@H]21 | luminescence | MT-2 | E138K/Q148K |  | 1.5
CCN1c2ncc(CCOc3ccc(-n4nc(C(=O)O)cc4C)cc3C)cc2C(=O)N(C)c2cccnc21 | p24 | C8166 | RT-K103N Y181C |  | >1
CCC(C)[C@@H](C(=O)N[C@@H](Cc1ccccc1)[C@H](O)CN(CC1CCCC1)S(=O)(=O)c1ccc(/C=N/O)cc1)N1CCN(Cc2cccc(COC)n2)C1=O | cytopathic effect / MTT | MT-4 | PR-L10F V32I M46I I47V Q68E I84V | A17 (LPV-resistant) | 0.5
COc1ccc(C)cc1CS(=O)(=O)c1cccc[n+]1[O-] | syncytia | CEM | RT-L100I | IIIB | 6.78
CCN1c2ncc(CCOc3ccc(C(=O)NCC(CC)(CC)C(=O)O)cc3C)cc2C(=O)N(C)c2cccnc21 | p24 | C8166 | RT-K103N Y181C |  | >1
Cc1ccc(-n2c(C)nnc2SCC(=O)Nc2ccc(OC(F)(F)F)cc2Br)cc1 | luciferase | HeLa + HeLa-JC53 | RT-K103N Y181C | NL4-3 | >173
CCSCC1=C(C(=O)Nc2ccc(Cl)c(C(=O)OC(C)C)c2)SCCO1 | syncytia | CEM | RT-L100I | TIBO-resistant (RT L100I) | 2.33
CSCSc1nc(Cc2c(F)cccc2F)cc(=O)[nH]1 | cytopathic effect / MTT | MT-4 | RT-K103N Y181C | IIIB | >125
CC(=O)Nc1nc(-c2ccc(S(=O)(=O)N(CC(C)C)C[C@@H](O)[C@H](Cc3ccccc3)NC(=O)O[C@H]3CO[C@H]4OCC[C@H]43)cc2)cs1 | cytopathic effect / MTT | MT-4 | PR-L010F M046I M071V I084V |  | 151
CC1=C(C(=O)Nc2ccc(C)c(C(=O)OC(C)C)c2)SCCO1 | syncytia | CEM | RT-Y181C | PYR-resistant (RT Y181C) | 13.3
CC(C)=CCOc1cc(NC(=S)c2ccsc2C)ccc1Cl | cytopathic effect / XTT | CEM + CEM-SS | RT-K103N | UC10/costatolide-resistant (RT K103N) | 125
c1ccc(CN2CCc3cncn3CC2)cc1 | RT activity | CEM + CEM-SS | RT-Y181C | Nevirapine-resistant | 1.4
CC(C)(C)c1ccc(-n2nnnc2SCC(=O)Nc2ccccc2Cl)c(Br)c1 | luciferase | C8166 | 1(RT-K103N Y181C) | RT-K103N Y181C | >2
Cc1ccc2c(C)ccc(-n3c(SCC(=O)Nc4ccc(S(N)(=O)=O)cc4Cl)nnc3C(F)(F)F)c2c1 | luciferase | HeLa + HeLa-JC53 | RT-Y188L | NL4-3 | 5.8
CCOC(=O)CCc1nc(-c2ccc(S(=O)(=O)N(CC(C)C)C[C@@H](O)[C@H](Cc3ccccc3)NC(=O)O[C@H]3CO[C@H]4OCC[C@H]43)cc2)co1 | cytopathic effect / MTT | MT-4 | PR-L010F M046I M071V I084V |  | 30
CCCCCCCCCC[N+](C)(C)CCCNCc1c(O)cc2c(c1O)-c1cc(ccc1O)[C@H]1NC(=O)[C@@H]3NC(=O)C4NC(=O)[C@@H](Cc5ccc(c(Cl)c5)Oc5cc3cc(c5O)Oc3ccc(cc3Cl)[C@@H](O)[C@H](NC1=O)C(=O)N[C@@H]2C(=O)O)NC(=O)[C@H](N)c1ccc(O)c(c1)Oc1cc(O)cc4c1 | syncytia | CEM | RT-K103N |  | 2.14
Cc1nnc(C(=O)NC(C)(C)c2nc(C(=O)NCc3ccc(F)cc3)c(O)c(=O)n2C)o1 | GFP | CEM-GXR | T97A E138K G140S Q148H | NL4-3 | >1000
CCN1c2ncc(CCOc3ccc(-c4ccncc4)cc3)cc2C(=O)N(C)c2cccnc21 | p24 | C8166 | RT-K103N Y181C |  | >1
Nc1ncnc2c1ncn2[C@@H]1O[C@H](CO)C=C1F |  | MT-2 | 6TAMs |  | 3
CCC(C)[C@@H](C(=O)N[C@@H](Cc1ccccc1)[C@H](O)CN(CC1CCCC1)S(=O)(=O)c1ccc(/C=N/O)cc1)N1CCN(Cc2cccnc2)C1=O | cytopathic effect / MTT | MT-4 | PR-L10F V32I M46I I47V Q68E I84V | A17 (LPV-resistant) | 0.5
CCOC(=O)c1cc(NC(=O)C2=C(C)OCCS2)ccc1Cl | syncytia | CEM | RT-V106A | Nevirapine-resistant (RT V106A) | >100
Cc1cc(C#N)cc(C(=O)c2cc(Cl)ccc2OCC(=O)Nc2ccc(S(N)(=O)=O)cc2C)c1 | β-galactosidase | HeLa + HELA CD4+ | RT-K103N V108I | HXB2 | ~1
CC(C)CN(C[C@@H](O)[C@H](Cc1ccccc1)NC(=O)[C@H](C(C)C)N1CC(=O)N(Cc2ccncc2)C1=O)S(=O)(=O)c1ccc(/C=N/O)cc1 | cytopathic effect / MTT | MT-4 | PR-L10F V32I M46I I47V Q68E I84V | A17 (LPV-resistant) | 0.94
CCC1=C(C(=O)Nc2ccc(Cl)c(C(=O)OC(C)C)c2)SCCO1 | syncytia | CEM | RT-E138K | TSAO-resistant (RT E138K) | 15
Cc1cc(C)cc(C(=O)c2cc(Cl)ccc2OCC(=O)Nc2ccc(S(N)(=O)=O)cc2C)c1 | β-galactosidase | HeLa + HELA CD4+ | RT-V108I | HXB2 | ~1
CC(=O)Nc1ncc(-c2ccc(S(=O)(=O)N(CC(C)C)C[C@@H](O)[C@H](Cc3ccccc3)NC(=O)O[C@H]3CO[C@H]4OCC[C@H]43)cc2)[nH]1 | cytopathic effect / MTT | MT-4 | PR-L010F M046I M071V I084V |  | 7.2
CCC(C)[C@@H](C(=O)N[C@@H](Cc1ccccc1)[C@H](O)CN(CC(C)C)S(=O)(=O)c1ccc(/C=N/O)cc1)N1CCN(Cc2cccc(C(C)C)n2)C1=O | cytopathic effect / MTT | MT-4 | PR-L10F V32I M46I I47V Q68E I84V | A17 (LPV-resistant) | 1.6
CC1=C(C(=O)Nc2cc(C(=O)OC(C)C)c(Cl)cc2F)SCCO1 | syncytia | CEM | RT-L100I | TIBO-resistant (RT L100I) | >15.4
Cc1ccc(C(C)S(=O)(=O)c2c(C)ccc[n+]2[O-])c(C)c1 | cytopathic effect | CEM | RT-K103N |  | 14.7
CC(C)CN(C[C@@H](O)[C@H](Cc1ccccc1)NC(=O)O[C@H]1CO[C@H]2OCC[C@H]21)S(=O)(=O)c1ccc(-c2csc(N)n2)cc1 | cytopathic effect / MTT | MT-4 | PR-L010F M046I M071V I084V |  | 91
CCCC1=C(C(=O)Nc2ccc(Cl)c(C(=O)OC)c2)SCCO1 | syncytia | CEM | RT-Y181C | PYR-resistant (RT Y181C) | >13.3

Repeating the final 5 entries:

SMILES | method | cell line | mutations | strain or isolate | value
CCC(C)[C@@H](C(=O)N[C@@H](Cc1ccccc1)[C@H](O)CN(CC(C)C)S(=O)(=O)c1ccc(/C=N/O)cc1)N1CCN(Cc2cccc(C(C)C)n2)C1=O | cytopathic effect / MTT | MT-4 | PR-L10F V32I M46I I47V Q68E I84V | A17 (LPV-resistant) | 1.6
CC1=C(C(=O)Nc2cc(C(=O)OC(C)C)c(Cl)cc2F)SCCO1 | syncytia | CEM | RT-L100I | TIBO-resistant (RT L100I) | >15.4
Cc1ccc(C(C)S(=O)(=O)c2c(C)ccc[n+]2[O-])c(C)c1 | cytopathic effect | CEM | RT-K103N |  | 14.7
CC(C)CN(C[C@@H](O)[C@H](Cc1ccccc1)NC(=O)O[C@H]1CO[C@H]2OCC[C@H]21)S(=O)(=O)c1ccc(-c2csc(N)n2)cc1 | cytopathic effect / MTT | MT-4 | PR-L010F M046I M071V I084V |  | 91
CCCC1=C(C(=O)Nc2ccc(Cl)c(C(=O)OC)c2)SCCO1 | syncytia | CEM | RT-Y181C | PYR-resistant (RT Y181C) | >13.3

Fold resistance has wild type as its base. Blank or dashed fields: not listed here.